The values below are quoted from earlier work in patent US8067243B2 (priority 2008, dated 2011).

For data set [1] the following is noted: fentanyl transdermal patches (25 to 100 ug/hr); cited from earlier work.
The conditions of data set [2]: single fentanyl dose (50 to 100 ug); cited from earlier work.

This is a selection: effects in other tests are not listed, and their absence says nothing.

As to Norfentanyl, the “urine concentration in chronic pain patients” value in data set [1] is recorded as “less than 5730 ng/mL”. Besides, in data set [2], the “detection in urine following a single fentanyl dose” value is given as “up to 72 hours”.
